PubChem BioAssay AID624099 – ICCB-Longwood, 2012
Shown is one part, drawn at random, of about 21,000 reagents tested. Of all reagents, 497 (2.4%) were called active. 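Higher z means weaker E2 silencing; only reporter increases were scored, and knock-downs that hurt cell survival may mask genuine repressor factors.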

- Screen: 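Knock-downs relieving repression by E2 of an HPV18 LCR luciferase reporter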 (primary screen)
- Cell system: human C33A cervical carcinoma cells (HPV-negative) stably expressing BPV1 E2 and an HPV18 LCR luciferase reporter
- Reagent: siRNA pool against human genes, 40 nM
- Time to read-out: 72 h
- Detection: 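Per-well luciferase luminescence, z-scored on each plate against the plate mean and SD with control wells left out, then averaged across three replicate plates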
- Direction: mean z-score and z-score: higher = stronger reporter signal, weaker E2 silencing
- Rule for the call: 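Hit if mean z-score reaches 2 and two or more of three replicate z-scores also reach 2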

For TUBG1 [SID134310778], the entry reads mean z-score 0.63; z-score, replicate A = 0.36; z-score, replicate B = 0.57; z-score, replicate C = 0.95; inactive. HMSD [SID134325728] scored mean z-score -1.3; z-score, replicate A = -1.52; z-score, replicate B = -1.14; z-score, replicate C = -1.25; inactive. With knock-down of BCL6B [SID134322707], the record shows mean z-score -0.82; z-score, replicate A = -0.5; z-score, replicate B = -0.82; z-score, replicate C = -1.14; inactive. Silencing of LOC400785 (retired record) [SID134326969] gave: mean z-score -0.03; z-score, replicate A = 0.09; z-score, replicate B = -0.41; z-score, replicate C = 0.22; inactive. Knock-down of CHCHD3 [SID134324444] resulted in: mean z-score 1.19; z-score, replicate A = 1.19; z-score, replicate B = 1.08; z-score, replicate C = 1.3; inactive. For BRD9 [SID134318422], the values are mean z-score -2.67; z-score, replicate A = -2.93; z-score, replicate B = -2.52; z-score, replicate C = -2.55; inactive.

After knock-down of MBD3L2 [SID134321299], the screen gave mean z-score 0.84; z-score, replicate A = 1.26; z-score, replicate B = 0.61; z-score, replicate C = 0.65; inactive. For LIX1 [SID134322235] the deposit lists mean z-score -0.71; z-score, replicate A = -0.64; z-score, replicate B = -0.71; z-score, replicate C = -0.78; inactive. For VPS26C [SID134316453], the values are mean z-score -0.21; z-score, replicate A = -0.17; z-score, replicate B = -0.25; z-score, replicate C = -0.22; inactive. AGAP12P [SID134328175] showed mean z-score 2.63; z-score, replicate A = 2.3; z-score, replicate B = 3.02; z-score, replicate C = 2.58; active. Knock-down of PALS1 [SID134314142] came out at: mean z-score -0.97; z-score, replicate A = -1.03; z-score, replicate B = -1.14; z-score, replicate C = -0.74; inactive.

An excerpt taken from the entries so far:
MBD3L2 [SID134321299]: mean z-score = 0.84; z-score, replicate A = 1.26; z-score, replicate B = 0.61; z-score, replicate C = 0.65; Call = inactive
LIX1 [SID134322235]: mean z-score = -0.71; z-score, replicate A = -0.64; z-score, replicate B = -0.71; z-score, replicate C = -0.78; Call = inactive
VPS26C [SID134316453]: mean z-score = -0.21; z-score, replicate A = -0.17; z-score, replicate B = -0.25; z-score, replicate C = -0.22; Call = inactive

More entries:
LGALS3BP [SID134312949] showed mean z-score -0.65; z-score, replicate A = -0.81; z-score, replicate B = -0.49; z-score, replicate C = -0.66; inactive. For KLHL33 [SID134325261], the entry reads mean z-score -1.19; z-score, replicate A = -1.61; z-score, replicate B = -0.88; z-score, replicate C = -1.07; inactive. For GEMIN8 [SID134324477] the deposit lists mean z-score 0.5; z-score, replicate A = 0; z-score, replicate B = 0.61; z-score, replicate C = 0.88; inactive. After knock-down of ARID3C [SID134328111], the screen gave mean z-score -0.92; z-score, replicate A = -0.81; z-score, replicate B = -0.88; z-score, replicate C = -1.07; inactive. Silencing of COLEC12 [SID134317471] resulted in: mean z-score -0.44; z-score, replicate A = -0.27; z-score, replicate B = -0.57; z-score, replicate C = -0.5; inactive. PUF60 [SID134316770] showed mean z-score 0.91; z-score, replicate A = 0.68; z-score, replicate B = 1.23; z-score, replicate C = 0.82; inactive.

After knock-down of UBQLN1 [SID134317190], the screen gave mean z-score 0.17; z-score, replicate A = 0.27; z-score, replicate B = 0.3; z-score, replicate C = -0.05; inactive. For LOC387940 (retired record) [SID134328415], the entry reads mean z-score -0.35; z-score, replicate A = -0.56; z-score, replicate B = -0.14; z-score, replicate C = -0.35; inactive. With knock-down of RPS6KA1 [SID56478477], the record shows mean z-score 0.17; z-score, replicate A = -0.63; z-score, replicate B = 0.66; z-score, replicate C = 0.49; inactive. SUSD4 [SID134324684] gave mean z-score -0.14; z-score, replicate A = -0.02; z-score, replicate B = -0.34; z-score, replicate C = -0.07; inactive. Silencing of SUSD4 [SID134327104] gave: mean z-score 1.14; z-score, replicate A = 1.23; z-score, replicate B = 1.16; z-score, replicate C = 1.02; inactive.
